# Laboratory results: the supplement of paper PMC6279402
# ± gives the standard deviation of the averaged measurements. This is a selection; strong and weak results do not stand in their true shares.
# System: A549
# Assay: relative viability (normalised to negative control = 1, bortezomib = 0) (fraction); higher = less cytotoxic
# Conditions: inflammatory serum-free RHB-A with cytokines + LPS, 5 d + 24 h CellTiter-Blue
# Experimental: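 A549 KRAS-mutant NSCLC cells, pre-treated 5 µM GSK126 or vehicle (DMSO), were seeded at 250 cells/well in 384-well plates in serum-free RHB-A medium with inflammatory cytokines/LPS and treated with Selleck kinase inhibitor and NCI oncology compounds at 30 or 300 nM in triplicate, refreshed at 48 h. Viability was read by CellTiter-Blue after 5 d plus 24 h and normalised per plate with cellHTS2 (mean of bortezomib positive control = 0, mean of negative control = 1).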
structure (smiles),measurement,setting,value
[As+3].[As+3].[O-2].[O-2].[O-2] [Arsenic trioxide],relative viability,"compound 30 nM, GSK126 pretreatment: 5 uM GSK126",0.939 ± 0.1
same,relative viability,"compound 30 nM, GSK126 pretreatment: none (vehicle)",0.885 ± 0.099
same,relative viability,"compound 300 nM, GSK126 pretreatment: 5 uM GSK126",0.975 ± 0.11
same,relative viability,"compound 300 nM, GSK126 pretreatment: none (vehicle)",0.961 ± 0.069
